Measurements reported in PubChem BioAssay AID504761 (Drosophila RNAi Screening Center, 2011)
In all, the deposit lists about 22,000 reagents; this is a random part of those with a known target gene and a result. Over the whole deposit, 116 (0.52%) are marked active. 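Calls depend on retest data that are not deposited; infection was ranked per plate without normalising between plates; the unit of the infection score is not given.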 A number with no mark means an inactive call. Not all columns of the deposit are shown. Not stated in the record: the amount of reagent, the time to read-out.

Purpose: 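Fly genes whose silencing reduces dengue virus type 2 infection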 (primary screen)
Cells: D.Mel-2 cells from Drosophila
Knock-down reagent: long dsRNA against Drosophila genes
Treatment: infection with dengue virus type 2; dose and infection time not stated
Read-out: 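Per well on two replicate plates, imaging gave the percent of cells positive for viral envelope protein, ranked by infection, and a nuclear count of cells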
Reading the numbers: infection score: higher = more virus-infected cells
Rule for the call: 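Low infection ranks in the two replicates (chance level up to 0.065) followed by a retest with a 1.5-fold or larger significant decrease, p below 0.05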
Meaning of the calls: active = confirmed: knock-down lowers infection; inactive = not picked or not confirmed

Gene	PubChem SID	infection score, replicate 1	infection score, replicate 2
gek (genghis khan)	SID104184480	3.34	51.9
Tdrd3 (Tudor domain containing 3)	SID104189808	0.66	0.89
Ctr1A (Copper transporter 1A)	SID104198128	5.75	6.95
CG14820	SID104189983	4.52	3.65
CG11791	SID104194183	4.15	4.11
CG11791	SID104208043	8.2	
Ugt316A1 (UDP-glycosyltransferase family 316 member A1)	SID104190168	5.5	9.03
CG18324	SID104186513	2.91	17.6
CG18324	SID104205144	0.93	7.86
SMC6 (Structural maintenance of chromosomes 6)	SID104195621	5.13	2.87
SMC6 (Structural maintenance of chromosomes 6)	SID104204541	6.23	11.3
CalpB (Calpain-B)	SID104190901	6.69	5.34
CalpB (Calpain-B)	SID104204429	2.67	11.6
LPCAT (Lysophosphatidylcholine acyltransferase)	SID104197949	4.65	3.85
LPCAT (Lysophosphatidylcholine acyltransferase)	SID104198049	3.04	2.23

6 consecutive reagents already listed, for reference:
Gene	PubChem SID	infection score, replicate 1	infection score, replicate 2
CG18324	SID104205144	0.93	7.86
SMC6 (Structural maintenance of chromosomes 6)	SID104195621	5.13	2.87
SMC6 (Structural maintenance of chromosomes 6)	SID104204541	6.23	11.3
CalpB (Calpain-B)	SID104190901	6.69	5.34
CalpB (Calpain-B)	SID104204429	2.67	11.6
LPCAT (Lysophosphatidylcholine acyltransferase)	SID104197949	4.65	3.85

The list goes on.
Gene	PubChem SID	infection score, replicate 1	infection score, replicate 2
CG13285	SID104189752	3.24	5.93
cpo (couch potato)	SID104193057	6.44	7.14
CG3491	SID104181726	5.34	4.35
Obp57e (Odorant-binding protein 57e)	SID104185683	1.68	0.25
Elp2 (Elongator complex protein 2)	SID104185887	8.69	4.59
Polr2E (RNA polymerase II, I and III subunit E)	SID104185892	44.1	27.1
CG31781 (retired record)	SID104182223	1.97	13.1
CG31781 (retired record)	SID104182224	3.63	5.32
CG4741	SID104184277	9.62	19
CG4741	SID104204217	7.76	2.94
CG10674	SID104189567	4.69	1.57
CG8149	SID104196183	5.4	7.12
dar1 (dendritic arbor reduction 1)	SID104188025	0.86	3.95
CG4324	SID104184254	10.9	21.3
CG4324	SID104206074	6.05	10.9
anne (anne boleyn)	SID104196895	0.76	0.37
anne (anne boleyn)	SID104208496	14	3.92
Pp4-19C (Protein phosphatase 19C)	SID104200351	3.24	8.77
Pp4-19C (Protein phosphatase 19C)	SID104201043	6.05	6.17
Pp4-19C (Protein phosphatase 19C)	SID104202676	5.13	11.2
Pp4-19C (Protein phosphatase 19C)	SID104204597	8.86	7.75
Edem1 (ER degradation enhancer, mannosidase alpha-like 1)	SID104198365	4.28	1.66
CG3793	SID104181774	13.7	21.3
sun (stunted)	SID104199932	5.05	1.79
sun (stunted)	SID104204828	23.2	12.7
